Assay results taken from PubChem BioAssay AID504848 (National Center for Advancing Translational Sciences (NCATS), 2011).
The entries are a selection whose mix differs from that of the whole data set. Records with an inconclusive call do not appear. The source made the active and inactive calls. Calls come from the whole dose curve; as a rule, active = well fitted inhibition curve with a large enough effect; inconclusive = small, poorly fitted or top-dose-only effect, or effect the other way; inactive = no such curve, though single readings can be large or run the other way.

assay: Confirmation screen for delayed death inhibitors of the malarial parasite plastid, 96 hour incubation; note: nearly all actives have a fitted effect of over 60% in size; conditions: P. falciparum luciferase growth in erythrocytes
Potency is the fitted concentration of half-maximal effect.

SMILES	Potency
Nc1ccccc1[As](=O)(O)c1ccccc1	active: 15.8 µM
